PubChem BioAssay AID624099 – ICCB-Longwood | 2012
Shown is an unselected part of about 21,000 deposited reagents. 497 of all reagents (2.4%) were called active. 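Higher z means weaker E2 silencing; only reporter increases were scored, and knock-downs that hurt cell survival may mask genuine repressor factors.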 A number with no mark means an inactive call. The numbers tell different reagents against one gene apart.

Aim: 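Human genes that papillomavirus E2 requires to repress the HPV18 LCR promoter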 (primary screen)
Cell system: human C33A cervical carcinoma cells (HPV-negative) stably expressing BPV1 E2 and an HPV18 LCR luciferase reporter
Reagents: siRNA pool against human genes, 40 nM
Time to read-out: 72 h
Measured: 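HPV18 LCR reporter light per well, converted to plate-wise z-scores that exclude control wells, and averaged over triplicate plates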
Scale: mean z-score and z-score: higher = stronger reporter signal, weaker E2 silencing
Hit rule: 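Hit if mean z-score reaches 2 and two or more of three replicate z-scores also reach 2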

| Target gene | reagent | mean z-score | z-score, replicate A | z-score, replicate B | z-score, replicate C |
| --- | --- | --- | --- | --- | --- |
| MIR100HG | 1 | 0.2 | -0.11 | 0.34 | 0.37 |
| SLC35C1 | 1 | -0.72 | -0.66 | -0.97 | -0.52 |
| LAMC1 | 1 | 0.06 | 0.36 | -0.19 | 0 |
| CEACAM19 | 1 | 1.29 | 1.54 | 0.93 | 1.42 |
| RPL15 | 1 | -0.77 | -0.66 | -0.87 | -0.77 |
| POLR3C | 1 | -0.09 | 0.1 | -0.26 | -0.1 |
| INHA | 1 | 1.34 | 1.12 | 1.4 | 1.49 |
| HAPLN1 | 1 | -0.53 | -0.48 | -0.61 | -0.51 |
| NEDD4L | 1 | -0.02 | 0.11 | 0.06 | -0.22 |
| ARL5B | 1 | 0.66 | 0.36 | 1.07 | 0.54 |
| FAM226A | 1 | -1.14 | -1.57 | -0.68 | -1.16 |
| MAPRE1 | 1 | -0.23 | -0.12 | -0.11 | -0.48 |
| MCM2 | 1 | -0.08 | -0.24 | -0.18 | 0.18 |
| CYP2A7 | 1 | 0.81 | 0.61 | 0.8 | 1.01 |
| SYT2 | 1 | -0.01 | -0.12 | 0.18 | -0.11 |
| SERPINA2 | 1 | 0.19 | 0.09 | 0.01 | 0.47 |
| SORT1 | 1 | -1.17 | -1.34 | -1.26 | -0.92 |
| TRMT44 | 1 | 1.38 | 1.65 | 1.2 | 1.27 |
| TXNDC2 | 1 | -0.51 | -0.54 | -0.45 | -0.53 |
| STAC3 | 1 | 0.3 | 0.33 | 0.33 | 0.25 |
| NBEAL2 | 1 | 1.66 | 1.4 | 2.39 | 1.2 |
| CRYGN | 1 | 1.23 | 0.84 | 1.51 | 1.34 |
| KRT84 | 1 | 0.89 | 0.84 | 1.1 | 0.73 |
| DNAJC2 | 1 | 0.03 | -0.28 | -0.02 | 0.38 |

Single entries from the entries so far:
For “z-score, replicate B”, SORT1 reads -1.26
Result for MIR100HG under “z-score, replicate A”: -0.11
Entry for INHA under “z-score, replicate C”: 1.49
Entry for SYT2 in “z-score, replicate B”: 0.18
Value of HAPLN1 in “z-score, replicate A”: -0.48
CYP2A7, z-score, replicate B = 0.8

The listing continues.
| Target gene | reagent | mean z-score | z-score, replicate A | z-score, replicate B | z-score, replicate C |
| --- | --- | --- | --- | --- | --- |
| DPM1 | 1 | -0.12 | 0.24 | -0.55 | -0.06 |
| LOC389767 (retired record) | 1 | -0.26 | -0.38 | 0.09 | -0.5 |
| CTSB | 1 | 0.76 | 0.61 | 1.08 | 0.59 |
| BRD10 | 1 | 1.15 | 1.66 | 0.79 | 0.99 |
| CFAP47 | 1 | 0.18 | -0.2 | 0.6 | 0.15 |
| CFAP47 | 2 | 1.62 | 1.68 | 1.8 | 1.38 |
| CFAP47 | 3 | 0.74 | 0.52 | 0.65 | 1.05 |
| CFAP47 | 4 | -0.35 | 0.09 | -0.57 | -0.57 |
| HSPA4L | 1 | -0.34 | -0.17 | -0.42 | -0.45 |
| NHLRC3 | 1 | -0.08 | -0.44 | 0 | 0.19 |
| TEDDM1 | 1 | -1.64 | -1.53 | -1.72 | -1.69 |
| LYPD6B | 1 | 1.68 | 2.25 | 1.65 | 1.15 |
| ADCY10 | 1 | -0.4 | -0.19 | -0.29 | -0.73 |
| SNAP29 | 1 | -0.62 | -0.64 | -0.63 | -0.58 |
| ZNF583 | 1 | 1.06 | 1 | 1.35 | 0.83 |
